# Measurements reported in paper PMC8113585.
# The exact form of at least one protein or probe is not confirmed.
# Target: SARS-CoV-2 nucleocapsid (N) protein, full-length (SARS-CoV-2) (UniProt P0DTC9)
# Test: EMSA
# Settings: N protein alone, 5 nM RNA; recombinant protein; residues 1-419; label: 5'-biotin
sequence,measurement,value
AAGUUCGUUU [TRS RNA],Kd,1.28 µM
